Measurements from publication PMC9253517.

Target: SARS-CoV-2 Wuhan-Hu-1 RBD (SARS-CoV-2, Wuhan-Hu-1 (GenBank MN985325.1)) (UniProt P0DTC2)

Question: JR047 (antibody) was tested. Which neutralisation IC50, Wuhan-Hu-1 pseudovirus did it give?
Answer: > 1 µg/mL
